Earlier results on one substance are cited in patent US20230172941A1, “PROPHYLAXIS AND TREATMENT OF PATHOGENIC CORONAVIRUS INFECTIONS” (published 2023).

The subject of the data set is chimeric antigen-receptor modified T cells.

Regarding ibrutinib, the “activity of CAR T cells in killing their targets” value is on record as “augments the activity of chimeric antigen-receptor modified T cells in killing their targets”.
